Results on 10 compounds are retold here after PubChem BioAssay AID704 (The Scripps Research Institute Molecular Screening Center, 2007).

The chains behind the UniProt entries cited, without tags or fusion partners.
UniProt P05866, whole entry: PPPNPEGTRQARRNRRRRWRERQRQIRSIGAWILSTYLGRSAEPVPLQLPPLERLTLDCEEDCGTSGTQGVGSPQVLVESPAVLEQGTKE

The list shows a part of the results, in another mix than the full data. Activity calls are given as the source filed them.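 How the source made its calls: active means inhibition above the screen-wide mean plus 3 SD (cut at about 35% in these data); inactive means the rest.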

One may read the inhibition as the drop in the measured response relative to a control, in per cent.

In the assay the target is Protein Rev (Human immunodeficiency virus type 1 group M subtype B (isolate WMJ22)) (UniProt P05866). In words: HIV-1 Rev-RRE binding inhibitors, primary screen, biochemical, FRET, protein-RNA interaction (AID 704). Particulars: Rev peptide-RRE RNA binding, at 8 µM, stronger effect = higher value. Summed up:
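Test system – labelled RRE RNA duplex and labelled Rev peptide · Reagent – labelled Rev peptide · Doses – one concentration, 8 µM nominal · Incubation – 5 + 15 min at 25 °C · Signal – FRET fluorescence readout · Read-out basis – % inhibition of FRET ratio versus controls · Control set – DMSO wells as 0% and neomycin B wells as 100% inhibition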
For `O=C(NCC1(N2CCOCC2)CCCCC1)c1cc2ccccc2o1`, the inhibition is inactive: 9.17%.
In the case of `O=C(OC1CN2CCC1CC2)C1c2ccccc2Oc2ccccc21` (stereo not given), the inhibition was inactive: -4.83%.
The figure for `COc1ccc(NC2CCN(CCc3ccccc3)CC2)c(OC)c1` is inactive: -6.22%.
The figure for `N#CC1(Nc2ccccc2)CCN(CCc2ccccc2)CC1` is inactive: 2.19%; for `O=C(NCC1(N2CCOCC2)CCCCC1)c1cc(=O)[nH]c2ccccc12` it is inactive: -0.14%.
The figure for `CN1CCC(Nc2cccc(F)c2)CC1` is inactive: 6.56%; for `N/C(=N\O)c1c(N)no[n+]1[O-]` it is inactive: 1.2%.
As to `c1ccc(CN2CCC(Nc3ccccc3)CC2)cc1`, the inhibition was inactive: 6.22%.
The figure for `CCOc1ncccc1C(=O)NCC1(N2CCOCC2)CCCCC1` is inactive: -0.71%.
The figure for `CCC(CO)(C(=O)OC1CN2CCC1CC2)c1ccccc1` (stereo not given) is inactive: 5.1%.
